# Source: patent US7723021B2, “Methods for treating lentivirus infections” (The J. David Gladstone Institutes, priority 2003, dated 2010)
# Tested on: APOBEC3G in peripheral blood lymphocytes
# Experiment: PBLs incubated with stimulant for 48 hours, Western blot for APOBEC3G (Example 2)
# Assay type: cell-based, Human
# Details: incubated with stimulant for 48 hours versus unstimulated
# Protocol: Human peripheral blood lymphocytes (PBLs) were isolated from blood and then incubated with anti-CD3 antibody (α-CD3), anti-CD28 antibody (α-CD28), IL-9, IL-12, IL-13, IL-15, or IFN-γ for 48 hours. Cells were lysed, the lysates clarified, and the protein concentration of the lysates was quantitated. Equal amounts of proteins in the lysates were separated by SDS-PAGE. After separation of the proteins by SDS-PAGE, the proteins were transferred to a membrane, and antibody to APOBEC3G was used to detect APOBEC3G protein on the membrane. The results are depicted in FIGS. 1-13.
# FIG. 11 depicts the effect of PHA, anti-CD3 antibody, anti-CD28 antibody, and IL-15 on the level of APOBEC3G in peripheral blood lymphocytes. […] Western blot of cell lysates deriving from stimulated and unstimulated peripheral blood lymphocytes. PBLs were isolated from blood and then incubated with the indicated stimulant for 48 hours. Following separation of the proteins by SDS-PAGE, antibody to APOBEC3G was used to detect APOBEC3G protein. As a loading control, anti-β-actin was used to detect β-actin.
substance,measurement,value
IL-2: cytokine,level of APOBEC3G in peripheral blood lymphocytes,upregulation
